This is an account of results in article PMC3616968, “Post-Transcriptional Regulation of the Trypanosome Heat Shock Response by a Zinc Finger Protein”.

The target in this series is T1, ZC3H11-119 (Trypanosoma brucei) (UniProt Q57W26).
T1 sequence (looked up): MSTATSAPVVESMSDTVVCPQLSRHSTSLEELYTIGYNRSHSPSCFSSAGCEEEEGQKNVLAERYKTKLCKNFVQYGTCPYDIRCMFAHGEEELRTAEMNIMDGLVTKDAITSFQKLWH
The series is described as follows: EMSA. The settings on record: results similar to ZC3H11-104; 20 mM Tris-HCl pH 8.0, 50 mM NaCl, 10 uM ZnCl2, 0.01% IGEPAL CA-630, 0.1 mg/ml tRNA, 10 ug/ml heparin (legends: 5 ug/ml or 10 mg/ml), room temperature 30 min; recombinant protein; residues 1-119; protein details: His10 (called His-tagged); label: 5'-32P (unlabelled as competitor). In general terms: A gel shift assay detects complexes by their altered migration in electrophoresis.

The exact form of at least one protein or probe is not confirmed. Weaker means in comparison with the reference protein, sequence or condition of that experiment. At least one verdict was read from the data and is not stated in words by the source. Where a protein sequence is shown, tags need not be part of it.

With AAAAAAAAAAAAAAAAAAAAAAA [A23], the binding result is given as “binds more weakly”.
